Pooled drug test results. Numbers come from NIAID ChemDB, via PubChem.

Common to all: tests in culture; species: HIV-1

Blank or dashed fields: not listed here.

Cc1cn([C@H]2C[C@H](N=[N+]=[N-])[C@@H](CO)O2)c(=O)[nH]c1=O ; endpoint: EC50 ; cell line: MT-4 ; strain or isolate: IIIB ; result: 0.03 µM
Nc1ccn([C@H]2CC[C@@H](CO)O2)c(=O)n1 ; endpoint: EC50 ; cell line: MT-4 ; strain or isolate: IIIB ; read by: MTT ; result: 1.468 µM
COc1ccccc1CN1C(=O)N(Cc2ccccc2OC)[C@H](Cc2ccccc2)[C@H](O)[C@@H](O)[C@H]1Cc1ccccc1 ; endpoint: EC50 ; cell line: MT-2 ; strain or isolate: RF ; read by: hybridisation ; result: <22.9 µM
COCCOCCOCCOCCOCCOCCOCCOC(=O)CCC(=O)O[C@@H]1Cc2ccccc2[C@@H]1NC(=O)[C@H](Cc1ccccc1)C[C@H](O)CN1CCN(Cc2cccnc2)C[C@H]1C(=O)NC(C)(C)C ; endpoint: EC50 ; cell line: CEM + CEM-SS ; strain or isolate: LAI ; read by: cytopathic effect / MTT ; result: <0.04 µM
CC(C)(C)OC(=O)N[C@@H](Cc1ccccc1)[C@@H](O)C[C@@H](Cc1ccc(OCC(=O)O)cc1)C(=O)N[C@H]1c2ccccc2C[C@H]1O ; endpoint: EC50 ; cell line: MT-4 ; strain or isolate: IIIB ; read by: cytopathic effect / MTT ; result: >10 µM
CC[C@@H](C(=O)[C@@H](C)[C@@H](O)[C@H](C)[C@@H]1O[C@@H]([C@@H](CC)C(=O)O)CC[C@@H]1C)[C@H]1O[C@@]2(C=C[C@@H](O)[C@@]3(CC[C@@](C)([C@H]4CC[C@](O)(CC)[C@H](C)O4)O3)O2)[C@H](C)C[C@@H]1C ; endpoint: EC50 ; cell line: H9 ; strain or isolate: IIIB ; read by: RT activity ; result: 0.4 µg/mL
CCCCCCCCCCCCCC(=O)O[C@@H](C[C@@H](Cc1ccccc1)C(=O)N[C@H]1c2ccccc2C[C@H]1OC(=O)CCCCCCCCCCCCC)CN1CCN(Cc2cccnc2)C[C@H]1C(=O)NC(C)(C)C ; endpoint: EC50 ; cell line: MT-4 ; strain or isolate: IIIB ; read by: cytopathic effect / MTT ; result: >10 µM
CC(C)(C)OC(=O)N[C@@H](Cc1ccccc1)[C@@H](O)C[C@@H](Cc1ccc(OCP(=O)(O)O)cc1)C(=O)N[C@H]1c2ccccc2C[C@H]1O ; endpoint: EC50 ; cell line: MT-4 ; strain or isolate: IIIB ; read by: cytopathic effect / MTT ; result: 0.16 µM
Nc1cccc(CN2C(=O)N(Cc3ccc4[nH]nc(-c5cccs5)c4c3)[C@H](Cc3ccccc3)[C@H](O)[C@@H](O)[C@H]2Cc2ccccc2)c1 ; endpoint: EC90 ; cell line: MT-2 ; strain or isolate: Ritonavir-resistant (PR M46I L63P A71V V82F I84V) ; changes: PR-M46I L63P A71V V82F I84V ; result: >5 µM
CCCCCCCCCCCCCC(=O)O[C@@H]1Cc2ccccc2[C@@H]1NC(=O)[C@H](Cc1ccccc1)C[C@H](O)CN1CCN(Cc2cccnc2)C[C@H]1C(=O)NC(C)(C)C ; endpoint: EC50 ; cell line: MT-4 ; strain or isolate: IIIB ; read by: cytopathic effect / MTT ; result: 0.36 µM
Cc1cn(C2CC(N=[N+]=[N-])C(CO)O2)c(=O)n(/C=C/S(=O)(=O)c2ccccc2)c1=O ; endpoint: EC50 ; strain or isolate: NL4-3 ; result: 0.007 µM
O=c1[nH]cnc2c1ncn2[C@H]1CC[C@@H](CO)O1 ; endpoint: EC50 ; cell line: PBMC ; strain or isolate: Subtype B isolate ; read by: p24 ; result: 0.4 µM
CCCCCCCCCCCCCCCCCCCCCCOCCCOP(=O)(O)C(=O)O ; endpoint: EC50 ; cell line: HT4 + HT4-6C ; read by: syncytia ; result: 0.4 µM
Cc1cc(SC2=C(O)CC(CCc3ccc(O)cc3)(C3CCCCC3)OC2=O)c(C(C)(C)C)cc1OS(=O)(=O)N(C)C ; endpoint: EC50 ; cell line: CEM ; strain or isolate: IIIB ; result: 5 µM
N#Cc1ccc(Nc2nccc(C(O)c3ccc4ccccc4c3)n2)cc1 ; endpoint: EC50 ; cell line: MT-4 ; changes: K103N/Y181C ; read by: MTT ; result: >35.5 µM
O=C1N(Cc2cccc(O)c2)[C@H](Cc2ccccc2)[C@H](O)[C@@H](O)[C@@H](Cc2ccccc2)N1Cc1ccc2ccccc2c1 ; endpoint: EC50 ; cell line: MT-2 ; strain or isolate: RF ; read by: hybridisation ; result: <0.145 µM
Cc1cn([C@H]2C[C@H](N=[N+]=[N-])[C@@H](CO)O2)c(=O)[nH]c1=O ; endpoint: EC50 ; cell line: CEM + CEM-SS ; strain or isolate: IIIB ; read by: cytopathic effect / XTT ; result: 0.004 µM
C=C(C)[C@@H]1Cc2c(cc3oc(=O)ccc3c2O)O1 ; endpoint: EC50 ; cell line: C8166 ; read by: MTT / syncytia ; result: 7.26 µM
Cc1cn([C@@H]2O[C@H](CO[Si](C)(C)C(C)(C)C)C3(OS(=O)(=O)C=C3N)[C@H]2O[Si](C)(C)C(C)(C)C)c(=O)n(C)c1=O ; endpoint: EC50 ; cell line: CEM ; changes: RT-E138K ; read by: syncytia ; result: >10 µM
Cc1ccnc2c1NC(=O)c1cccnc1N2C1CC1 ; endpoint: EC50 ; cell line: MT-4 ; changes: RT-M41L T215Y ; result: <0.2 µM
CC[C@@H](O)[C@]1(C)C[C@H](C)[C@@](O)([C@H]2C[C@H](C)[C@H]([C@]3(C)CC[C@H]([C@@H]4CC[C@@]5(O[C@H]([C@@H](C)[C@@H](OC)[C@H](C)C(=O)O)[C@H](C)[C@@H](OC)[C@H]5C)O4)O3)O2)O1 ; endpoint: EC50 ; cell line: U-937 ; strain or isolate: IIIB ; read by: RT activity ; result: 0.1 µg/mL
CC(C)(C)NC(=O)[C@@H]1C[C@@H]2CCCC[C@@H]2CN1C[C@@H](O)[C@H](Cc1ccccc1)NC(=O)[C@H](CC(N)=O)NC(=O)c1ccc2ccccc2n1 ; endpoint: EC50 ; cell line: PBMC ; strain or isolate: NL4-3 ; read by: p24 ; result: 0.025 µM
COc1c(O)c(Br)c2c(c1OC)-c1c(c(Br)c(O)c(OC)c1OC)C[C@H](C)[C@H](C)C2 ; endpoint: EC50 ; cell line: MT-4 ; strain or isolate: IIIB ; result: 0.81 µM
O=C1N(CC2CCCC2)[C@H](Cc2ccccc2)[C@H](O)[C@@H](O)[C@@H](Cc2ccccc2)N1CC1CCCC1 ; endpoint: EC50 ; cell line: MT-2 ; strain or isolate: RF ; read by: hybridisation ; result: <1.7 µM
O=C(O)P(=O)(O)O ; endpoint: EC50 ; cell line: MT-2 ; strain or isolate: LAI viral clone (RT-W88S) ; changes: RT-W88S ; read by: cytopathic effect / MTT ; result: 120 µM
Cc1ccc(S(=O)(=O)/C=C/n2c(=O)c(C)cn(C3CC(N=[N+]=[N-])C(CO)O3)c2=O)cc1 ; endpoint: EC50 ; strain or isolate: NL4-3 ; result: 0.011 µM
Cc1ccnc2c1NC(=O)c1cccnc1N2C1CC1 ; endpoint: EC50 ; cell line: PBMC ; strain or isolate: Subtype B isolate ; read by: p24 ; result: 0.03 µM
CC(C)=CCc1cc2ccc(=O)oc2c(CC=C(C)C)c1O ; endpoint: EC50 ; cell line: C8166 ; read by: MTT / syncytia ; result: 1.59 µM
Cc1cc(Nc2cc(C(C)O)cc(C(C)O)c2)nc(N)[n+]1C ; endpoint: EC50 ; strain or isolate: ADA ; result: >1 µM
C=C(C)[C@@H]1Cc2cc3ccc(=O)oc3cc2O1 ; endpoint: EC50 ; cell line: C8166 ; read by: MTT / syncytia ; result: 4.33 µM
CCCCCCCCCCCCCCCCOCCCOP(=O)(O)C(=O)O ; endpoint: EC50 ; cell line: HT4 + HT4-6C ; read by: syncytia ; result: 2.5 µM
CCCCCN1C(=O)N(CCCCC)[C@H](Cc2ccccc2)[C@H](O)[C@@H](O)[C@H]1Cc1ccccc1 ; endpoint: EC50 ; cell line: MT-2 ; strain or isolate: RF ; read by: hybridisation ; result: <1.5 µM
COc1cc([C@H]2c3c(cc(OC)c(OC)c3OC)C[C@@H](C)[C@@H]2C)cc(C)c1OC ; endpoint: EC50 ; cell line: MT-4 ; strain or isolate: IIIB ; read by: cytopathic effect / MTT ; result: 3.2 µM
Cc1cn([C@H]2C[C@H](N=[N+]=[N-])[C@@H](CO)O2)c(=O)[nH]c1=O ; endpoint: EC50 ; cell line: C8166 ; changes: RT-D67N K70R T215F K219Q ; read by: p24 ; result: 0.53 µM
Cc1cn([C@H]2C[C@H](N=[N+]=[N-])[C@@H](CO)O2)c(=O)[nH]c1=O ; endpoint: EC50 ; cell line: ATH8 ; strain or isolate: IIIB ; read by: cytopathic effect / trypan blue ; result: <5 µM
CO[C@@H]1C[C@@H](C[C@H]2CC[C@H](C)[C@H]([C@@H](C)C(=O)O)O2)O[C@]2(O[C@](C)([C@H]3CC[C@@](C)([C@@H]4O[C@@H]([C@H]5O[C@@](O)(CO)[C@H](C)C[C@@H]5C)C[C@@H]4C)O3)C[C@H]2C)[C@@H]1C ; endpoint: EC50 ; cell line: U-937 ; strain or isolate: IIIB ; read by: RT activity ; result: 0.05 µg/mL
Nc1ccn(CC2CN2CP(=O)(O)O)c(=O)n1 ; endpoint: EC50 ; cell line: MT-4 ; strain or isolate: IIIB ; read by: cytopathic effect / MTT ; result: >100 µM
C=CC(C)(C)c1cc2cc(C[C@@H](O)C(C)(C)O)c(O)cc2oc1=O ; endpoint: EC50 ; cell line: C8166 ; read by: MTT / syncytia ; result: 0.68 µM
CC(C)(C)OC(=O)N[C@@H](Cc1ccccc1)[C@@H](O)C[C@@H](Cc1ccc(OCc2nn[nH]n2)cc1)C(=O)N[C@H]1c2ccccc2C[C@H]1O ; endpoint: EC90 ; cell line: MT-4 ; strain or isolate: IIIB ; read by: p24 ; result: >10 µM
Cc1cn([C@H]2C[C@H](N=[N+]=[N-])[C@@H](CO)O2)c(=O)[nH]c1=O ; endpoint: EC50 ; cell line: SupT1 + Sup-T1 ; strain or isolate: DV ; read by: p24 ; result: 0.04 µM
CO[C@H]1/C=C/O[C@@]2(C)Oc3c(C)c(O)c4c(c3C2=O)C(=O)C(SCCOC(=O)CCC(=O)OC[C@H]2O[C@@H](n3cc(C)c(=O)[nH]c3=O)C[C@@H]2N=[N+]=[N-])=C(NC(=O)/C(C)=C\C=C\[C@H](C)[C@H](O)[C@@H](C)[C@@H](O)[C@@H](C)[C@H](OC(C)=O)[C@@H]1C)C4=O ; endpoint: EC90 ; cell line: C8166 ; strain or isolate: IIIB ; read by: p24 ; result: 14 µM
N#Cc1ccc(Nc2nccc(C(O)c3cccc4ccccc34)n2)cc1 ; endpoint: EC50 ; cell line: MT-4 ; changes: K103N/Y181C ; read by: MTT ; result: >6.5 µM
CCCCCCCCCCCCCCCCCCOCCCOP(=O)(O)C(=O)O ; endpoint: EC50 ; cell line: HT4 + HT4-6C ; read by: syncytia ; result: 1 µM
O=C1N(Cc2ccc(CO)cc2)[C@H](Cc2ccccc2)[C@H](O)[C@@H](O)[C@@H](Cc2ccccc2)N1Cc1ccc(CO)cc1 ; endpoint: EC50 ; cell line: MT-4 ; strain or isolate: IIIB ; changes: PR-G48V L90M ; read by: cytopathic effect / XTT ; result: 0.05 µM
Cc1cn(C2CC(N=[N+]=[N-])C(CO)O2)c(=O)n(/C=C/C(=O)/C=C(\O)c2nnnn2Cc2ccc(F)cc2)c1=O ; endpoint: EC50 ; strain or isolate: NL4-3 ; result: 0.24 µM
CCCCCCCCCCCCOCCCOP(=O)(O)C(=O)O ; endpoint: EC50 ; cell line: HT4 + HT4-6C ; read by: syncytia ; result: 8.3 µM
Cc1cn([C@H]2C[C@H](N=[N+]=[N-])[C@@H](CO)O2)c(=O)n(N)c1=O ; endpoint: EC50 ; strain or isolate: NL4-3 ; result: 0.11 µM
Nc1nc2c(ncn2CC2CN2CP(=O)(O)O)c(=O)[nH]1 ; endpoint: EC50 ; cell line: MT-4 ; strain or isolate: IIIB ; read by: cytopathic effect / MTT ; result: >100 µM

Again, the opening 3 rows:

smiles | endpoint | cell line | strain or isolate | changes | read by | result
Cc1cn([C@H]2C[C@H](N=[N+]=[N-])[C@@H](CO)O2)c(=O)[nH]c1=O | EC50 | MT-4 | IIIB |  |  | 0.03 µM
Nc1ccn([C@H]2CC[C@@H](CO)O2)c(=O)n1 | EC50 | MT-4 | IIIB |  | MTT | 1.468 µM
COc1ccccc1CN1C(=O)N(Cc2ccccc2OC)[C@H](Cc2ccccc2)[C@H](O)[C@@H](O)[C@H]1Cc1ccccc1 | EC50 | MT-2 | RF |  | hybridisation | <22.9 µM

Conditions beyond the fields shown may differ between rows. ECn is the concentration giving n% inhibition of infection, replication or growth.